Results of unrelated studies side by side (data: NIAID ChemDB).

Common to all: whole-cell or culture tests; species: Mycobacterium kansasii

Conditions beyond the fields shown may differ between rows.

{"structure": "Fc1cccc(-n2c(=S)oc3ccc(Cl)cc3c2=S)c1", "conditions": "14 d", "measure": "MIC", "strain or isolate": "6509/96", "result": "8 µM"}
{"structure": "CCCCCCCc1ccc(NC(=O)NNC(=O)c2ccncc2)cc1", "conditions": "14 d", "read by": "broth dilution", "measure": "MIC100", "strain or isolate": "My 6509/96", "result": "62.5 µM"}
{"structure": "Cc1ccc(-n2c(=O)oc3ccc(C)cc3c2=S)cc1", "conditions": "21 d", "measure": "MIC", "strain or isolate": "My 235/80", "result": "4 µM"}
{"structure": "O=C(Oc1cc(Cl)ccc1C(=O)Nc1ccc(Cl)c(Cl)c1)c1cnccn1", "conditions": "7 d", "measure": "MIC", "strain or isolate": "6509/96", "result": "2 µM"}
{"structure": "O=C(Nc1ccc(C(F)(F)F)cc1)c1ccc(Cl)cc1OS(=O)(=O)c1ccccc1", "conditions": "14 d", "measure": "MIC", "strain or isolate": "235/80", "result": "4 µM"}
{"structure": "CC(C)c1ccc(NC(=O)NNC(=O)c2ccncc2)cc1", "conditions": "14 d", "read by": "broth dilution", "measure": "MIC100", "strain or isolate": "My 235/80", "result": "16 µM"}
{"structure": "O=C(Nc1cccc(F)c1)c1cc(Cl)ccc1OS(=O)(=O)c1ccccc1", "conditions": "14 d", "measure": "MIC", "strain or isolate": "235/80", "result": "32 µM"}
{"structure": "CC(C)C[C@H](NC(=O)OCc1ccccc1)c1cnc(-c2ccccc2)[nH]1", "conditions": "21 d", "measure": "MIC", "strain or isolate": "My 235/80", "result": ">500 µM"}
{"structure": "O=C(NC1CCCCC1)N(C(=O)c1cnccn1)C1CCCCC1", "conditions": "7 d", "measure": "MIC", "strain or isolate": "6509/96", "result": "500 µM"}
{"structure": "Cc1ccc(-n2c(=S)oc3ccc(F)cc3c2=S)cc1", "conditions": "21 d", "measure": "MIC", "strain or isolate": "My 235/80", "result": "8 µM"}
{"structure": "O=C(Nc1cccc(C(F)(F)F)c1)c1cc(Cl)ccc1OS(=O)(=O)c1ccccc1", "conditions": "7 d", "measure": "MIC", "strain or isolate": "235/80", "result": "8 µM"}
{"structure": "O=C(Oc1ccc(Cl)cc1C(=O)Nc1cccc(Cl)c1)c1cnccn1", "conditions": "7 d", "measure": "MIC", "strain or isolate": "235/80", "result": "2 µM"}
{"structure": "CC[C@@H](C)[C@H](NC(=O)OCc1ccccc1)c1cnc(-c2ccc([N+](=O)[O-])cc2)[nH]1", "conditions": "7 d", "measure": "MIC", "strain or isolate": "My 6509/96", "result": "16 µM"}
{"structure": "O=C(Nc1ccc(Br)cc1)c1ccc(Br)cc1OS(=O)(=O)c1ccccc1", "conditions": "14 d", "measure": "MIC", "strain or isolate": "6509/96", "result": "8 µM"}
{"structure": "C[C@H](NC(=O)OCc1ccccc1)c1cnc(-c2ccc([N+](=O)[O-])cc2)[nH]1", "conditions": "14 d", "measure": "MIC", "strain or isolate": "My 6509/96", "result": ">125 µM"}
{"structure": "Cc1ccc2oc(=O)n(-c3ccc(Br)cc3)c(=S)c2c1", "conditions": "14 d", "measure": "MIC", "strain or isolate": "6509/96", "result": "4 µM"}
{"structure": "O=C(Nc1cccc(C(F)(F)F)c1)c1ccc(Cl)cc1OS(=O)(=O)c1ccccc1", "conditions": "21 d", "measure": "MIC", "strain or isolate": "6509/96", "result": "125 µM"}
{"structure": "COC(=O)c1cnccn1", "conditions": "21 d", "measure": "MIC", "strain or isolate": "235/80", "result": ">500 µM"}
{"structure": "O=C(NNC(=O)c1ccncc1)Nc1ccc(Br)cc1Br", "conditions": "7 d", "read by": "broth dilution", "measure": "MIC100", "strain or isolate": "My 6509/96", "result": ">125 µM"}
{"structure": "Nc1ccc(C(=O)O)c(O)c1", "conditions": "14 d", "measure": "MIC", "strain or isolate": "235/80", "result": "1000 µM"}
{"structure": "CC[C@@H](C)[C@H](NC(=O)OCc1ccccc1)c1cnc(-c2ccccc2)[nH]1", "conditions": "21 d", "measure": "MIC", "strain or isolate": "My 6509/96", "result": "32 µM"}
{"structure": "O=C(Nc1cccc(Cl)c1)c1cc(Cl)ccc1OS(=O)(=O)c1ccccc1", "conditions": "21 d", "measure": "MIC", "strain or isolate": "6509/96", "result": "16 µM"}
{"structure": "Fc1cc(Nc2nnc(-c3ccncc3)o2)ccc1Br", "conditions": "7 d", "read by": "broth dilution", "measure": "MIC100", "strain or isolate": "My 6509/96", "result": ">125 µM"}
{"structure": "O=C(Oc1cc(Cl)ccc1C(=O)Nc1cccc(Br)c1)c1cnccn1", "conditions": "7 d", "measure": "MIC", "strain or isolate": "235/80", "result": "4 µM"}
{"structure": "O=C(OCc1ccccc1)N1CCC[C@H]1c1cnc(-c2ccccc2)[nH]1", "conditions": "14 d", "measure": "MIC", "strain or isolate": "My 6509/96", "result": "62.5 µM"}
{"structure": "O=C(Oc1ccc(Cl)cc1)c1cnccn1", "conditions": "7 d", "measure": "MIC", "strain or isolate": "6509/96", "result": "250 µM"}
{"structure": "Fc1cccc(-n2c(=S)oc3ccc(Br)cc3c2=S)c1", "conditions": "14 d", "measure": "MIC", "strain or isolate": "6509/96", "result": "8 µM"}
{"structure": "O=C(Oc1cc(Cl)ccc1C(=O)Nc1ccc(C(F)(F)F)cc1)c1cnccn1", "conditions": "21 d", "measure": "MIC", "strain or isolate": "6509/96", "result": "1 µM"}
{"structure": "C[C@H](NC(=O)OCc1ccccc1)c1cnc(-c2ccccc2)[nH]1", "conditions": "7 d", "measure": "MIC", "strain or isolate": "My 235/80", "result": "125 µM"}
{"structure": "O=C(Nc1ccc(C(F)(F)F)cc1)c1cc(Cl)ccc1OS(=O)(=O)c1ccccc1", "conditions": "7 d", "measure": "MIC", "strain or isolate": "235/80", "result": "125 µM"}

A second listing of 2 rows from above:

| structure | conditions | read by | measure | strain or isolate | result |
|---|---|---|---|---|---|
| C[C@H](NC(=O)OCc1ccccc1)c1cnc(-c2ccc([N+](=O)[O-])cc2)[nH]1 | 14 d |  | MIC | My 6509/96 | >125 µM |
| C[C@H](NC(=O)OCc1ccccc1)c1cnc(-c2ccccc2)[nH]1 | 7 d |  | MIC | My 235/80 | 125 µM |

A number after MIC or MFC names an inhibition level or a share of isolates. Blank or dashed fields: not listed here.